The target in test [1] is HA glycoprotein of A/Puerto Rico/8/1934 (H1N1) influenza virus, purified (influenza virus A/Puerto Rico/8/1934 …). The test can be described thus: ELISA, plate coated with the fusion protein. On the technique in general: In an ELISA, binding on a coated surface is turned into a signal by an enzyme label.
Test [2] has as its target SARS-COV-2 spike glycoprotein (SARS-COV-2). Nature of the test: ELISA, plate coated with hLAG3-Ig, anti-SARS-Cov-2 antibody detection.

B1: hCTLA-4-IG (Fc fusion)
chain: not shown
On to B1, for which, in test [1], the binding result is given as “no binding”.

B2: hLAG-3-Ig conjugate (extracellular domain of human LAG-3, amino acids 23-450, fused with the constan (Fc fusion)
chain: LQPGAEVPVVWAQEGAPAQLPCSPTIPLQDLSLLRRAGVTWQHQPDSGPPAAAPGHPLAPGPHPAAPSSWGPRPRRYTVLSVGPGGLRSGRLPLQPRVQLDERGRQRGDFSLWLRPARRADAGEYRAAVHLRDRALSCRLRLRLGQASMTASPPGSLRASDWVILNCSFSRPDRPASVHWFRNRGQGRVPVRESPHHHLAESFLFLPQVSPMDSGPWGCILTYRDGFNVSIMYNLTVLGLEPPTPLTVYAGAGSRVGLPCRLPAGVGTRSFLTAKWTPPGGGPDLLVTGDNGDFTLRLEDVSQAQAGTYTCHIHLQEQQLNATVTLAIITVTPKSFGSPGSLGKLLCEVTPVSGQERFVWSSLDTPSQRSFSGPWLEAQEAQLLSQPWQCQLYQGERLLGAAVYFTELSSPGAQRSGRAPGALPAGHLASTKGPSVFPLAPSSKSTSGGTAALGCLVKDYFPEPVTVSWNSGALTSGVHTFPAVLQSSGLYSLSSVVTVPSSSLGTQTYICNVNHKPSNTKVDKKV[in this place human IgG1 Fc]
In the case of B2, the binding result in test [2] was “no binding”.

B3: hPD-1-Ig (Fc fusion)
chain: LDSPDRPWNPPTFSPALLVVTEGDNATFTCSFSNTSESFVLNWYRMSPSNQTDKLAAFPEDRSQPGQDCRFRVTQLPNGRDFHMSVVRARRNDSGTYLCGAISLAPKAQIKESLRAELRVTERRAEVPTAHPSPSPRPAGQFQ
On to B3, for which the binding result in test [1] is “no binding”.
